Consider two substances from PMC5770049, “Amino acid substitutions affecting aspartic acid 605 and valine 606 decrease the interaction strength between the influenza virus RNA polymerase PB2 '627' domain and the viral nucleoprotein” (2018).

Read-outs that look alike come from different tables or passages of the source.

Experiment [1] has as its target PB2 '627' domain (amino acids 538-693) of A/Hong Kong/156/97 (H5N1), wild type, unlabelled (influenza A virus A/Hong Kong/156/97 (H5N1)).
For experiment [2] the target is unchanged. This is another data set of the same source.

In the case of NP mutant R416A (monomeric), the Kd in experiment [1] was 274 nM.

In experiment [2], NP fragment 146-185 showed a Kd of 927 nM, a koff of 0.067 s⁻¹ and a kon of 72300 M⁻¹ s⁻¹.
